Measurements: patent US20180016348A1 (Janssen / Centocor, published 2018)

Tests used:
Assay in all cases: cell-based or functional assay
[1] = target: T1, neuraminidase (NA) of H1N1 A/Mississippi/3/2001 H274Y (influenza A virus H1N1 …)
[2] = target: human FcγRIIIa receptor (V158) (human, UniProt P08637 17-254)
[3] = target: T1, neuraminidase (NA) of H1N1 …; remark: listed apart in the source

Binder | IC50 of virus neutralization (VNA on MDCK cells) [1] [µg/mL] | ADCC reporter EC50; A549 targets infected with H1N1 A/Mississippi/03/2001 H274Y [2] [µg/mL] | EC50 of neuraminidase inhibition (NA-XTD assay, whole virus) [3] [µg/mL]
CR12042 (antibody, V domains shown) VH: EVQLVESGAEVRKPGSSVKVSCTASGDTFSSYTITWVRQAPGQGLEWMGEIIPIFGTANYAQKFQGRVTLTADESTTTAYMDLSSLRSEDTAVYYCARGPDNHSDRYFYYGMDVWGQGTTVTVSS VL: EIVLTQSPLSLPVTPGEPASISCRSSQSLLHSTGNNYLDWYLQKPGQSPQLLIYLGSNRASGVPDRFSGSGSGTDFTLKISRVEAEDVGVYYCMQALQTPRTFGQGTKVDIK | 0.48 | 0.16 | 0.15
CR12040 (antibody, V domains shown) VH: QVQLVQSGAEVKKPGASVKVSCKASGYTFTNYYINWVRQAPGQGLEWMGRINPLHGGTGFAEKFQGRLTMTRDTSTSTVDMELSSLRSEDTAIYYCVKERDTTMATDYYGRSGCFDYWGQGTLVTVSS VL: EIVLTQSPATLSLSPGERATLSCRASQSVRSYLAWYQQKPGQAPRLLIYDASNRATGIPARFSGSGSGTDFSLTISSLEPEDFAVYYCQQRSNWPITFGQGTRLEIK |  | 0.04 | 
